Results of unrelated studies side by side (data: NIAID ChemDB).

All rows: whole-cell or culture tests; species: Mycobacterium tuberculosis

Conditions beyond the fields shown may differ between rows. An empty or dashed field is not shown. Percent inhibition refers to the dose given; in toxicity tests it is the harm to the cells. MIC bound comes from a single tested concentration. A number after MIC or MFC names an inhibition level or a share of isolates.

compound | changes | strain | method | measure | tested at | value
O=C1CC2OCC=C3CN4CCC56c7cc(O)c(O)cc7N1C5C2C3CC46 | - | H37Rv | BACTEC | inhibition | 12.5 µg/mL | -16%
CCN(C)CCC(O)(c1ccc2ccccc2c1)C(c1ccccc1)c1cc2cc(Br)ccc2nc1OC | - | H37Rv | - | MIC90 | - | 0.03 µg/mL
[N-]=[N+]=NCCCCCN1C(=O)C2(OCCO2)c2cc(Cl)ccc21 | - | MC2 6230 | - | MIC99 | - | >298 µM
CO[C@H]1/C=C/O[C@@]2(C)Oc3c(C)c(O)c4c(=O)c(c5oc6cc(N7CCN(CC(C)C)CC7)cc(=O)c6nc5c4c3=C2O)NC(=O)/C(C)=C\C=C\[C@H](C)[C@H](O)[C@@H](C)[C@@H](O)[C@@H](C)[C@H](OC(C)=O)[C@@H]1C | - | 14 (rifampicin-susceptible) | - | MIC | - | 0.0039 µg/mL
CCCc1c2c([nH]c(=O)c1C)C(=O)c1[nH]c(=O)c(C)c(CCC)c1C2=O | Rifampicin-resistant | H37Rv | resazurin / fluorescence | MIC90 | - | 0.27 µg/mL
Cc1nn(-c2ccccc2)c(=O)n2c(-n3c(C)nn(-c4ccccc4)c3=O)nnc12 | - | H37Rv | BACTEC | inhibition | 12.5 µg/mL | 0%
CC1(C)S[C@@H]2[C@H](NC(=O)[C@H](C(=O)[O-])c3ccsc3)C(=O)N2[C@H]1C(=O)[O-].[Na+].[Na+] | - | 28 strains | - | MIC90 | - | >64 µg/mL
CO/N=C1\CN(c2nc3c(cc2F)c(=O)c(C(=O)O)cn3C2CC2)CC1CN | - | 44 isolates (resistant) | - | MIC90 | - | 8 µg/mL
[N-]=[N+]=NCCN1C(=O)C2(OCCO2)c2ccccc21 | - | MC2 6230 | - | MIC99 | - | >385 µM
COc1nc2ccc(Br)cc2cc1C(c1ccccc1)C(O)(CCN1CCSCC1)c1ccccc1 | - | H37Rv | - | MIC90 | - | 44.77 µg/mL
NNC(=O)c1ccncc1 | - | 101596 | - | MIC | - | ≥0.2 µg/mL
[N-]=[N+]=NCCCCN1C(=O)C(=O)c2ccccc21 | - | MC2 6230 | - | MIC99 | - | >410 µM
O=[N+]([O-])c1ccc(Sc2nc3ccccc3[nH]2)c(Cl)c1 | - | H37Rv | resazurin | MIC bound | - | >6.25 µg/mL
COc1nc2ccc(Br)cc2cc1C(c1ccccc1)C(O)(CCN1CCOCC1)c1cccc2ccccc12 | - | H37Rv | - | MIC90 | - | 59.76 µg/mL
CN(C)c1ccc2c(NCCCCCCNc3ccnc4cc(N(C)C)ccc34)ccnc2c1 | - | H37Rv | BACTEC | MIC | - | >128 µg/mL
Cc1[nH]c2ccccc2c1C(C[N+](=O)[O-])C[N+](=O)[O-] | - | H37Ra | - | MIC | - | 64 µg/mL
C=C1C(=O)O[C@H]2/C=C(/CO)[C@H](OC(C)=O)C[C@H](O)/C(C)=C\[C@H](OC(=O)[C@@H](C)CC)[C@H]12 | - | H37Rv | BACTEC | inhibition | 12.5 µg/mL | 16%
Cc1ccc2oc(=O)c3c(c2c1)OC(N)=C(C#N)C3c1cc2ccccc2nc1Oc1ccccc1 | - | H37Rv | - | inhibition | 250 µg/mL | 91%
O=C1Nc2ccc([N+](=O)[O-])cc2[C@]12N1CSC[C@H]1[C@H](c1cccc(Cl)c1Cl)[C@]21Cc2ccccc2C1=O | - | H37Rv | agar | MIC99 | - | 2.8 µM
CCC1OC(=O)C(C)C(OC2CC(C)(OC)C(O)C(C)O2)C(C)C(OC2OC(C)CC(N(C)C)C2OC(=O)CCC2CCCC2)C(C)(O)CC(C)C(=O)C(C)C(O)C1(C)O | - | H37Rv | BACTEC | MIC bound | - | >12.8 µg/mL
[N-]=[N+]=NCCCN1C(=O)C2(OCCO2)c2cc(F)ccc21 | - | MC2 6230 | - | MIC99 | - | >343 µM
CC(C)(C)C1CCc2onc(C(=O)Nc3cnn(Cc4ccccc4I)c3)c2C1 | - | Rv3602c | - | MIC | - | >128 µM
COc1nc2ccc(Br)cc2cc1C(c1ccccc1)C(O)(CCN(C)C)c1ccc(N2CCOCC2)cc1 | - | H37Rv | - | MIC90 | - | 59.06 µg/mL
O=C(c1ccc([N+](=O)[O-])cc1[N+](=O)[O-])N(N=CC=Cc1ccccc1)c1nnc(-c2ccccc2)c(-c2ccccc2)n1 | - | H37Rv | BACTEC | MIC bound | - | ≤12.5 µg/mL
Fc1cc(F)cc(CNCc2c[nH]c3ccccc23)c1 | - | H37Ra | - | MIC | - | 64 µg/mL
CCCCCCC1=C(O)C(=O)C(CCCCCC)=C(O)C1=O | - | H37Rv | BACTEC | inhibition | 128 µg/mL | 99%
Clc1cccc(Cl)c1CNCc1c[nH]c2ccccc12 | - | H37Ra | - | MIC | - | 64 µg/mL
COc1nc2ccc(Br)cc2cc1C(c1ccccc1)C(O)(CCCN1CCCC1)c1cccc2ccccc12 | - | H37Rv | - | MIC90 | - | 47.31 µg/mL
O=C1Nc2ccc([N+](=O)[O-])cc2[C@]12N1CSC[C@H]1[C@H](c1ccc([N+](=O)[O-])cc1)[C@]21Cc2ccccc2C1=O | - | H37Rv | agar | MIC99 | - | 5.9 µM
NC1[C@H]2CN(c3nc4c(cc3F)c(=O)c(C(=O)O)cn4-c3ccc(F)cc3F)C[C@@H]12 | - | 206 isolates (susceptible) | - | Mean MIC | - | 29.9 µg/mL
Clc1ccc(CNCc2c[nH]c3ccccc23)cc1Cl | - | H37Ra | - | MIC | - | 16 µg/mL
CCCCCCCCCCCCNC(CC(=O)OCC)[C@H]1O[C@@H]2OC(C)(C)O[C@@H]2[C@H]1OC | - | H37Rv | - | MIC | - | 50 µg/mL
CC(C)(C)C1CCc2onc(C(=O)Nc3cnn(Cc4ccccc4)c3)c2C1 | - | Rv3602c | - | MIC | - | >128 µM
Cc1ccc(/C=N/NC(=O)c2ccncc2)cc1 | - | H37Rv | resazurin | MIC | - | 0.1 µg/mL
NNC(=O)c1ccncc1 | - | Isolate UT1998 (katG S315T mutation) | - | MIC | - | 0.75 µg/mL
CCCCCCCCCCCCCCCCNC(CC(=O)OCC)[C@H]1O[C@@H]2OC(C)(C)O[C@@H]2[C@H]1OCc1ccccc1 | - | H37Rv | - | MIC | - | >25 µg/mL
CC(=O)O.CC(=O)O.COC(=O)C1C(O)C(C)C(O)C(C)(O)/C=C\C=C(/C)C(=O)Nc2c(C)c(C)c3c(c2O)C(=O)C(C)=C2OCOC(=C23)/C(C)=C/C(C)(O)C(O)C(C)C1OC(C)=O | - | H37Rv | BACTEC | MIC bound | - | >12.5 µg/mL
C=C1CCCC(C)(C)[C@H]1CC/C(C)=C/CC/C(C)=C/Cn1c[n+](C)c2ncnc(N)c21 | - | - | - | inhibition | 6.25 µg/mL | 61%
CO[C@H]1/C=C/O[C@@]2(C)Oc3c(C)c(O)c4c(O)c(c(/C=N/N5CCN(C)CC5)c(O)c4c3C2=O)NC(=O)/C(C)=C\C=C\[C@H](C)[C@H](O)[C@@H](C)[C@@H](O)[C@@H](C)[C@H](OC(C)=O)[C@@H]1C | - | ATCC 25177 | - | MIC | - | 0.036 µM
CN[C@@H]1[C@H](O[C@H]2[C@H](O[C@H]3[C@H](O)[C@@H](O)[C@H](N=C(N)N)[C@@H](O)[C@@H]3N=C(N)N)O[C@@H](C)[C@]2(O)C=O)O[C@@H](CO)[C@H](O)[C@H]1O | - | H37Rv | resazurin | MIC | - | 250 µg/mL
O=C1Nc2ccccc2[C@]12N1CSC[C@H]1[C@H](c1ccccc1Cl)[C@]21Cc2ccccc2C1=O | - | H37Rv | agar | MIC99 | - | 26.4 µM
C#C[C@@]12O[C@]1(CO)[C@@H]1[C@@H](O)C[C@H]3C(C)(C)CCC[C@]3(C)[C@H]1CC2=O | - | Resistant strains | - | MIC | - | 100 µg/mL
CC(=O)NC[C@H]1CN(c2ccc(N3CCOCC3)c(F)c2)C(=O)O1 | - | 19 strains | - | MIC | - | >16 µg/mL
COC(=O)Nn1cc(C(C(C)=O)C(C)=O)c(C(C)=O)c1C | - | H37Rv | resazurin | inhibition | 6.25 µg/mL | -10%
CCOC(=O)CCNC(CC(=O)OCC)[C@H]1O[C@@H]2OC(C)(C)O[C@@H]2[C@H]1OC | - | H37Ra | - | MIC | - | >25 µg/mL
C=C(C)/C=C/[C@]12C[C@H](C)[C@H]3CC[C@](C)(NC)[C@@H](CC[C@H]1C)[C@@H]32 | - | H37Rv | - | inhibition | 128 µg/mL | 99%
CC(C)(C)C1CCc2onc(C(=O)Nc3cnn(Cc4ccccc4Br)c3)c2C1 | - | Rv3602c | - | MIC | - | >128 µM
COc1cc2c(cc1OC)C(=O)c1nccc3ccc(OC)c(c13)O2 | - | H37Rv | BACTEC | inhibition | 12.5 µg/mL | 0%
CCCCCCCCCCCCNC(CC(=O)OCC)[C@H]1O[C@@H]2OC(C)(C)O[C@@H]2[C@H]1OCc1ccccc1 | - | H37Rv | - | MIC | - | 50 µg/mL
CC(C)(C)C1CCc2onc(C(=O)Nc3cnn(Cc4ccc5ccccc5c4)c3)c2C1 | - | Rv3602c | resazurin | MIC | - | >128 µM
Clc1ccc(CNCCc2c[nH]c3ccccc23)c(Cl)c1 | - | H37Ra | - | MIC | - | 32 µg/mL
COc1ccc(Cl)c2c1[nH]c1nc3nc4cc(Cl)ccc4n3nc12 | - | H37Rv | BACTEC | inhibition | 12.5 µg/mL | 0%
NC[C@H]1O[C@H](O[C@H]2[C@H](O)[C@@H](O[C@H]3O[C@H](CO)[C@@H](O)[C@H](N)[C@H]3O)[C@H](N)C[C@@H]2N)[C@H](O)[C@@H](O)[C@@H]1O | - | H37Rv | resazurin / fluorescence | MIC90 | - | 0.65 µg/mL
OC[C@@H](O)[C@@H](O[C@@H]1O[C@H](CO)[C@@H](O)[C@H](O)[C@H]1O)[C@H](O)C(/C=N/Nc1ccccc1)=N/Nc1ccccc1 | - | H37Rv | resazurin | MIC bound | - | >6.25 µg/mL
CN[C@@H]1[C@H](O[C@H]2[C@H](O[C@H]3[C@H](O)[C@@H](O)[C@H](N=C(N)N)[C@@H](O)[C@@H]3N=C(N)N)O[C@@H](C)[C@]2(O)C=O)O[C@@H](CO)[C@H](O)[C@H]1O | Streptomycin-resistant | H37Rv | resazurin / fluorescence | MIC90 | - | >2 µg/mL
CCOC(=O)c1oc2cc(O)cc(C)c2c1C | - | H37Rv | BACTEC | MIC bound | - | >12.5 µg/mL
CN[C@@H]1[C@H](O[C@H]2[C@H](O[C@H]3[C@H](O)[C@@H](O)[C@H](N=C(N)N)[C@@H](O)[C@@H]3N=C(N)N)O[C@@H](C)[C@]2(O)C=O)O[C@@H](CO)[C@H](O)[C@H]1O | - | ATCC 25177 | - | MIC | - | 0.086 µM
COc1ccc2[nH]c3c(C)c4ccncc4c(C)c3c2c1 | - | H37Rv | BACTEC | MIC | - | 0.1 µg/mL
Cc1ccc(Oc2nc3ccc(C)cc3cc2C2C(C#N)=C(N)Oc3c2c(=O)oc2ccc(C)cc32)cc1 | - | H37Rv | - | inhibition | 250 µg/mL | 24%
O=C1Nc2ccc(Cl)cc2[C@]12N1CSC[C@H]1[C@H](c1cccc(Cl)c1Cl)[C@]21Cc2ccccc2C1=O | - | H37Rv | agar | MIC99 | - | 5.8 µM
Fc1cccc(CNCc2c[nH]c3ccccc23)c1F | - | H37Ra | - | MIC | - | 64 µg/mL
Cc1ccc(NC(=O)c2ccco2)cc1Cl | - | H37Rv | BACTEC | MIC | - | 6.25 µg/mL
COc1nc2ccc(Br)cc2cc1C(c1ccccc1)C(O)(CCCn1cccc1)c1ccc2ccccc2c1 | - | H37Rv | - | MIC90 | - | 59.56 µg/mL
[N-]=[N+]=NCCCCCN1C(=O)C(=O)c2ccccc21 | - | MC2 6230 | - | MIC99 | - | >387 µM
Fc1cccc(F)c1CNCCc1c[nH]c2ccccc12 | - | H37Ra | - | MIC | - | 64 µg/mL
CO[C@H]1/C=C/O[C@@]2(C)Oc3c(C)c(O)c4c(O)c(c(N5CCN(Cc6c(C)cc(C)cc6C)CC5)c(O)c4c3C2=O)NC(=O)/C(C)=C\C=C\[C@H](C)[C@H](O)[C@@H](C)[C@@H](O)[C@@H](C)[C@H](OC(C)=O)[C@@H]1C | - | Rifampicin-resistant | - | MIC | - | >3 µg/mL
Clc1cccc(Cl)c1CNCCc1c[nH]c2ccccc12 | - | H37Ra | - | MIC | - | 32 µg/mL
Cc1cc(=O)oc2cc(N)ccc12 | - | H37Rv | resazurin | MIC | - | 1000 µg/mL
COc1ccc(N=Nc2c(C)c(C#N)c(=S)n([C@@H]3O[C@H](CO)[C@H](O)[C@H](O)[C@H]3O)c2C)cc1 | - | H37Rv | resazurin | MIC bound | - | >6.25 µg/mL
COC(=O)c1ccc(Cn2cc(NC(=O)c3noc4c3CC(C(C)(C)C)CC4)cn2)cc1 | - | Rv3602c | resazurin | MIC | - | >128 µM
COc1cc2oc(=O)ccc2cc1C1OC(=O)C2OC21C | - | H37Rv | BACTEC | MIC | - | ≥12.5 µg/mL
COc1ccc2nc(Oc3ccc(Cl)cc3)c(C3C(C#N)=C(N)Oc4c3c(=O)oc3ccccc43)cc2c1 | - | H37Rv | - | inhibition | 250 µg/mL | 32%
CN[C@@H]1[C@H](O[C@H]2[C@H](O[C@H]3[C@H](O)[C@@H](O)[C@H](N=C(N)N)[C@@H](O)[C@@H]3N=C(N)N)O[C@@H](C)[C@]2(O)C=O)O[C@@H](CO)[C@H](O)[C@H]1O | - | 89996 | - | MIC | - | ≥2 µg/mL
CCOC(=O)Cc1c(C)c2c(O)cc(O)cc2oc1=O | - | H37Rv | BACTEC | MIC bound | - | >12.5 µg/mL
CNCCc1c[nH]c2ccccc12 | - | H37Ra | - | MIC | - | 256 µg/mL